Results of unrelated studies side by side (data: NIAID ChemDB).

Common to all: growth or infection tests

Conditions beyond the fields shown may differ between rows. A number after MIC or MFC names an inhibition level or a share of isolates. ECn is the concentration giving n% inhibition of infection, replication or growth. Inhibition is in % at the dose shown (toxicity tests: loss of growth or viability).

O=C(Nc1ccc(S(=O)(=O)[O-])c2cccc(S(=O)(=O)[O-])c12)c1ccccc1 ; cells: Human conjunctiva cells ; read-out: inhibition ; method: cytopathic effect ; organism: Herpes simplex virus ; tested at: 50 µg/mL ; result: 0%
Cn1cc(C(=O)NCc2ccc(Cl)cc2)c(=O)c2cc(CN3CCOCC3)ccc21 ; cells: HFF ; read-out: inhibition ; method: plaque count ; organism: Varicella zoster virus ; strain or isolate: ST varicella isolate ; tested at: 2.8 µM ; result: 90%
CCOC(=O)c1cnc(NCCCCNc2ccnc3cc(Cl)ccc23)nc1C ; read-out: MIC99 ; organism: Cryptococcus gattii ; strain or isolate: L 27/01 ; result: 32 µg/mL
O=c1[nH]c(=O)n([C@@H]2O[C@H](CO)[C@@H](O)[C@@H]2O)cc1/C=C/Br ; cells: HELF ; read-out: inhibition ; method: plaque count ; organism: Varicella zoster virus ; strain or isolate: Kawaguchi ; tested at: 0.01 µg/mL ; result: 100%
CCC(CC)[C@H](NC(C)=O)[C@@H]1[C@H](O)[C@@H](C(=O)O)C[C@H]1N=C(N)N ; cells: MDCK ; read-out: EC50 ; organism: Influenza A virus ; strain or isolate: Influenza A/Victoria/3/75 (H3N2) ; result: 0.1 µM
Cc1cc(CCCOc2c(C)cc(-c3noc(C(F)(F)F)n3)cc2C)on1 ; cells: OHIO HELA-I ; read-out: EC50 ; method: cytopathic effect / visual reading ; organism: Rhinovirus ; strain or isolate: Isolate 8 ; result: 0.17 µg/mL
O=C(Nc1ccc2c(O)c(N=Nc3ccc(N=Nc4ccc(S(=O)(=O)O)cc4)cc3)c(S(=O)(=O)O)cc2c1)c1ccccc1 ; cells: Human conjunctiva cells ; read-out: inhibition ; method: cytopathic effect ; organism: Herpes simplex virus ; tested at: 5 µg/mL ; result: 0%
CCC(CC)[C@H](NC(C)=O)[C@@H]1C[C@@H](C(=O)O)C[C@H]1N=C(N)N ; cells: MDCK ; read-out: EC50 ; organism: Influenza A virus ; strain or isolate: Influenza A/Shandong/09/93 (H3N2) ; result: 0.18 µM
CC(C)(O)c1cn(-c2ccc(Cl)cc2)nn1 ; read-out: MIC ; method: broth dilution ; organism: Candida parapsilosis ; strain or isolate: URM 4818 ; result: 128 µg/mL
CCOC(=O)c1ccc(OCCC2CCN(c3ccc(C)nn3)CC2)cc1 ; cells: KB ; read-out: EC50 ; method: neutral red ; organism: Rhinovirus ; strain or isolate: 41467 (ICAM-1 receptor group 89) ; result: 0.022 µM
O=[N+]([O-])c1cc([N+](=O)[O-])c2ccc(S(=O)(=O)O)cc2c1O ; cells: Human embryonic lung cells ; read-out: inhibition ; method: cytopathic effect ; organism: Adenovirus ; strain or isolate: TYPE 3 ; tested at: 50 µg/mL ; result: 10%
Cc1ccc(-n2cc(C(C)(C)O)nn2)cc1C ; read-out: inhibition ; method: broth dilution ; organism: Candida parapsilosis ; strain or isolate: URM 3621 ; tested at: 2048 µg/mL ; result: 0%
C=CCc1ccc(O)c(OC)c1 ; read-out: MIC90 ; method: turbidity ; organism: Candida tropicalis ; strain or isolate: 2829 ; result: 500 µg/mL
CC(C)(O)c1cn(-c2ccc3ccccc3c2)nn1 ; read-out: inhibition ; method: broth dilution ; organism: Candida parapsilosis ; strain or isolate: URM 3627 ; tested at: 2048 µg/mL ; result: 0%
CCCC(CCC)C(NC(C)=O)C1CC(C(=O)O)CC1N=C(N)N ; cells: MDCK ; read-out: EC50 ; organism: Influenza B virus ; strain or isolate: LEE/40 ; result: 1.7 µM
CC(=O)N[C@H]1[C@H]([C@H](O)[C@H](O)CO)OC(C(=O)O)=C[C@@H]1N=C(N)N ; cells: MDCK ; read-out: EC50 ; organism: Influenza A virus ; strain or isolate: H1N1 A/TEXAS/36/91 ; result: 0.22 µM
O=C(Nc1cc(C(F)(F)F)cc(C(F)(F)F)c1)NN(CC(O)CN1CCOCC1)C(=O)Nc1cc(C(F)(F)F)cc(C(F)(F)F)c1 ; read-out: MIC ; organism: Escherichia coli ; strain or isolate: ES142 ; result: 172 µM
O=C(Nc1ccc2cc(S(=O)(=O)[O-])cc(S(=O)(=O)[O-])c2c1)c1ccccc1 ; cells: Human conjunctiva cells ; read-out: inhibition ; method: cytopathic effect ; organism: Herpes simplex virus ; tested at: 50 µg/mL ; result: 10%
OC[C@H]1O[C@@H](n2c(Cl)nc3cc(Cl)c(Cl)cc32)[C@H](O)[C@@H]1O ; read-out: EC50 ; method: virus yield ; organism: Human cytomegalovirus ; strain or isolate: D10 (D341E) ; result: <7.9 µM
Nc1nc2c(ncn2C=C2CC2CO)c(=O)[nH]1 ; read-out: EC90 ; method: plaque count ; organism: Human cytomegalovirus ; strain or isolate: VR6264 (ganciclovir-resistant) ; result: 7.8 µM
CCOC(=O)c1c(C)nc(NCCCCNc2ccnc3cc(Cl)ccc23)nc1-c1ccccc1[N+](=O)[O-] ; read-out: MIC99 ; organism: Cryptococcus gattii ; strain or isolate: 23/10993 ; result: 5.7 µg/mL
O=S(=O)([O-])c1ccc2c(NS(=O)(=O)c3ccccc3)cc(S(=O)(=O)[O-])cc2c1 ; cells: Human amnion AV3 cells ; read-out: inhibition ; method: cytopathic effect ; organism: Adenovirus ; strain or isolate: TYPE 3 ; tested at: 50 µg/mL ; result: 0%
Nc1nc(=O)n([C@@H]2O[C@H](CO)[C@@H](O)[C@@H]2F)cc1I ; cells: HELF ; read-out: inhibition ; method: plaque count ; organism: Varicella zoster virus ; strain or isolate: OKA ; tested at: 0.1 µg/mL ; result: 82%
O=S(=O)([O-])c1ccc2c(O)cc(S(=O)(=O)[O-])cc2c1 ; cells: Human amnion AV3 cells ; read-out: inhibition ; method: cytopathic effect ; organism: Herpes simplex virus ; tested at: 5 µg/mL ; result: 5%
CC(C)(O)c1cn(-c2ccc([N+](=O)[O-])cc2)nn1 ; read-out: inhibition ; method: broth dilution ; organism: Candida krusei ; strain or isolate: URM 4802 ; tested at: 2048 µg/mL ; result: 0%
O=C(Nc1ccncc1)Nc1cc(C(F)(F)F)cc(C(F)(F)F)c1 ; read-out: MIC ; organism: Klebsiella pneumoniae ; strain or isolate: KL21 ; result: >300 µM
O=C(Nc1cc(S(=O)(=O)O)cc2cc(S(=O)(=O)O)cc(O)c12)c1ccccc1 ; cells: Human amnion AV3 cells ; read-out: inhibition ; method: cytopathic effect ; organism: Adenovirus ; strain or isolate: TYPE 3 ; tested at: 50 µg/mL ; result: 0%
O=C(CC(=O)Nc1cccc(C(F)(F)F)c1)Nc1cccc(C(F)(F)F)c1 ; read-out: MIC ; organism: Klebsiella pneumoniae ; strain or isolate: KL21 ; result: >300 µM
O=S(=O)([O-])c1ccc(O)c2ccccc12 ; cells: Human embryonic lung cells ; read-out: inhibition ; method: cytopathic effect ; organism: Adenovirus ; strain or isolate: TYPE 3 ; tested at: 5 µg/mL ; result: 0%
Oc1ccccc1N=Cc1ccc(O)c(O)c1O ; read-out: MIC99 ; organism: Cryptococcus neoformans ; strain or isolate: ATCC 62066 ; result: 5.7 µg/mL
O=C(CCC(=O)Nc1cc(C(F)(F)F)cc(C(F)(F)F)c1)Nc1cc(C(F)(F)F)cc(C(F)(F)F)c1 ; read-out: MIC ; organism: Klebsiella pneumoniae ; strain or isolate: KL21 ; result: >300 µM
Cc1cn([C@@H]2O[C@H](CO)[C@@H](O)[C@@H]2O)c(=O)[nH]c1=O ; cells: HELF ; read-out: inhibition ; method: plaque count ; organism: Varicella zoster virus ; strain or isolate: Ohtomo ; tested at: 0.1 µg/mL ; result: 100%
CCC(CC)O[C@@H]1C=C(C(=O)O)C[C@H](N)[C@H]1NC(C)=O ; cells: MDCK ; read-out: EC50 ; method: plaque count ; organism: Influenza A virus ; strain or isolate: H1N1 isolate C9C ; result: 0.3 µg/mL
O=C(NCc1ccc(Cl)cc1)c1c[nH]c2c(F)cccc2c1=O ; read-out: EC50 ; method: plaque count ; organism: Human cytomegalovirus ; strain or isolate: LYS ; result: 12 µM
Cc1nc(NCCCCNc2ccnc3cc(Cl)ccc23)nc(-c2ccccc2[N+](=O)[O-])c1C(=O)OC(C)C ; read-out: MIC99 ; organism: Cryptococcus neoformans ; strain or isolate: LMM 820 ; result: 8 µg/mL
CCc1cn([C@@H]2O[C@H](CO)[C@@H](O)[C@@H]2O)c(=O)[nH]c1=O ; cells: HELF ; read-out: inhibition ; method: plaque count ; organism: Varicella zoster virus ; strain or isolate: Ohtomo ; tested at: 100 µg/mL ; result: 52%
Nc1ccc2cc(S(=O)(=O)O)cc(S(=O)(=O)O)c2c1 ; cells: Human amnion AV3 cells ; read-out: inhibition ; method: cytopathic effect ; organism: Rhinovirus ; tested at: 50 µg/mL ; result: 10%
Cc1nc(NCCCCNc2ccnc3cc(Cl)ccc23)nc(-c2ccccc2)c1C(=O)OC(C)C ; read-out: MIC99 ; organism: Cryptococcus neoformans ; strain or isolate: 27JF ; result: 16 µg/mL
O=c1[nH]c(=O)n([C@@H]2O[C@H](CO)[C@@H](O)[C@@H]2O)cc1/C=C/Cl ; cells: HELF ; read-out: inhibition ; method: plaque count ; organism: Varicella zoster virus ; strain or isolate: YS ; tested at: 0.001 µg/mL ; result: 53%

Repeating the first 3 entries:

{"smiles": "O=C(Nc1ccc(S(=O)(=O)[O-])c2cccc(S(=O)(=O)[O-])c12)c1ccccc1", "cells": "Human conjunctiva cells", "read-out": "inhibition", "method": "cytopathic effect", "organism": "Herpes simplex virus", "tested at": "50 µg/mL", "result": "0%"}
{"smiles": "Cn1cc(C(=O)NCc2ccc(Cl)cc2)c(=O)c2cc(CN3CCOCC3)ccc21", "cells": "HFF", "read-out": "inhibition", "method": "plaque count", "organism": "Varicella zoster virus", "strain or isolate": "ST varicella isolate", "tested at": "2.8 µM", "result": "90%"}
{"smiles": "CCOC(=O)c1cnc(NCCCCNc2ccnc3cc(Cl)ccc23)nc1C", "read-out": "MIC99", "organism": "Cryptococcus gattii", "strain or isolate": "L 27/01", "result": "32 µg/mL"}